Target: HIV-1 protease (Human immunodeficiency virus type 1 group M subtype B, UniProt P04585)
Experiment: Inhibition constants against HIV-1 protease (method of Pennington et al.)
Type: biochemical
Conditions: read-out: Ki value

COc1ccc(S(=O)(=O)N(Cc2ccco2)C[C@@H](O)[C@H](Cc2ccccc2)NC(=O)O[C@H]2CCOC2)cc1
Ki: 20 nM

From patent US20080293727A1, “Novel sulfonamide inhibitors of aspartyl protease” (priority 1992, published 2008)
